Pooled drug test results. Numbers come from NIAID ChemDB, via PubChem.

All rows: host protein counter-tests

An empty or dashed field is not shown. ICn: concentration for n% inhibition. Lines come from different laboratories, so protocols vary. Percent inhibition refers to the dose given; in toxicity tests it is the harm to the cells.

smiles	protein	read-out	species	method	tested at	result
O=C1CN=C(c2ccccc2)c2ccccc2N1CCCCC1CC(Br)=NO1	Cathepsin B	inhibition	Human	fluorescence	20 µM	0%
CCCCNC(=O)[C@H](C)C[C@H](O)[C@H](CC1CCCCC1)NC(=O)[C@@H](NC(=O)[C@H](CCCN)NC(=O)OCc1ccccc1)C(C)C	Pepsin	IC50	-	-	-	3.1 µM
Nc1nc(N)nc(-c2ccc(OCc3cccc(Cl)c3)cc2)n1	Dihydrofolate reductase	IC50	Human	absorbance	-	72.49 µM
CCc1nc(N)nc(N)c1OCCCOc1ccccc1CCC(=O)O	Dihydrofolate reductase	Ki	Human	absorbance	-	2.841 µM
CCCCNC(=O)[C@H](C)C[C@H](O)[C@H](CC1CCCCC1)NC(=O)[C@@H](NC(=O)[C@H](CCC(N)=O)NC(=O)OC(C)(C)C)C(C)C	Pepsin	IC50	-	-	-	0.18 µM
CO[P@](=O)(c1cc(C)cc(/C=C/C#N)c1)c1c(C(N)=O)[nH]c2ccc(Cl)cc12	DNA polymerase alpha	IC50	Human	-	-	159.3 µM
O=C1C=C(CF)C(=O)c2ccccc21	Glutathione reductase	IC50	Human	-	-	5.4 µM
c1cc(CN2CCCNCCNCCCNCC2)ccc1CN1CCCNCCNCCCNCC1	CXCR1	IC50	Human	calcium flux	-	>25 µg/mL
O=c1onc(C(O)c2ccccc2)s1	Proteasome	IC50	Human	broth dilution / fluorescence	-	20 µM
COc1cc(-c2cc(=O)c3c(O)cc(O[C@@H]4O[C@H](CO)[C@@H](O)[C@H](O)[C@H]4OS(=O)(=O)O)cc3o2)ccc1O	Topoisomerase	IC50	Molluscum contagiosum virus	-	-	>200 µM
CCCCNC(=O)[C@H](C)C[C@H](O)[C@H](CC1CCCCC1)NC(=O)[C@@H](NC(=O)[C@H](CCCN)NC(=O)OC(C)(C)C)C(C)C	Pepsin	IC50	-	-	-	2.7 µM
CC1(C)S[C@@H]2[C@H](NC(=O)Cc3ccccc3)C(=O)N2[C@H]1C(=O)NCCNC(=O)[C@@H]1N2C(=O)[C@@H](NC(=O)Cc3ccccc3)[C@H]2SC1(C)C	Renin	IC50	Human	HPLC	-	>500 µM
C=C1C(=O)C[C@@H]2/C=C(\COC(C)=O)CC/C=C(/C=O)[C@H](OC(C)=O)[C@@H](OC(=O)C(C)CC)[C@@H]12	Dehydrogenase	IC50	Mus musculus	MTT / absorbance	-	13.8 µg/mL
C[N+]1(CC2CCCCCC2)CCC(NC(=O)C2c3cc(Cl)ccc3Oc3ccc(Cl)cc32)CC1	CCR1	IC50	Human	-	-	0.0198 µM
CC[C@H]1C[C@]1(NC(=O)[C@@H]1C[C@@H]2CN1C(=O)[C@H](C(C)(C)C)NC(=O)OCC(C)(C)CCCCc1cccc3c1CN(C3)C(=O)O2)C(=O)NS(=O)(=O)C1CC1	Thrombin	IC90	-	substrate cleavage	-	>100 µM
C=CCN(C(=O)OCc1ccc([N+](=O)[O-])cc1)C1CCN(CC[C@](C)(CN(C)S(=O)(=O)c2ccccc2)c2ccccc2)CC1	CCR1	IC50	Human	radioligand binding / binding	-	>1 µM
CC1(C)S[C@H]([C@H](NC(=O)Cc2ccccc2)C(=O)NCc2ccccc2)N[C@H]1C(=O)NCCNC(=O)[C@@H]1N[C@@H]([C@H](NC(=O)Cc2ccccc2)C(=O)NCc2ccccc2)SC1(C)C	Renin	IC50	Human	HPLC	-	>500 µM
C[C@@]1(CO)[C@H](O)CC[C@@]2(C)[C@H]1CC[C@H]1C[C@@H]3C[C@@]12CC[C@]3(O)CO	DNA polymerase epsilon	IC50	Human	radiometric	-	5 µM

For reference, 2 entries again:

smiles	protein	read-out	species	method	tested at	result
C[N+]1(CC2CCCCCC2)CCC(NC(=O)C2c3cc(Cl)ccc3Oc3ccc(Cl)cc32)CC1	CCR1	IC50	Human	-	-	0.0198 µM
CCCCNC(=O)[C@H](C)C[C@H](O)[C@H](CC1CCCCC1)NC(=O)[C@@H](NC(=O)[C@H](CCC(N)=O)NC(=O)OC(C)(C)C)C(C)C	Pepsin	IC50	-	-	-	0.18 µM